Results of unrelated studies side by side (data: NIAID ChemDB).

All rows: tests in culture; species: Mycobacterium tuberculosis

ECn: concentration that inhibits the pathogen or its effect by n%. a–b is a range or a potency band. MIC bound comes from a single tested concentration. Rows are shuffled and stem from different studies. Blank or dashed fields: not listed here. Inhibition is in % at the dose shown (toxicity tests: loss of growth or viability). A number after MIC or MFC names an inhibition level or a share of isolates.

compound,cells,dose,read by,strain,read-out,result
Cc1ccc(C(=O)CN2CCN(c3cc4c(cc3F)c(=O)c(C(=O)O)cn4C3CC3)CC2)cc1,VERO,,,H37Rv,EC50,<6.25 µg/mL
S=C(Nc1ccc(Br)cc1)c1ccc(Cl)cc1,,,,H37Rv,MIC,250 µM
CN(C)C(=S)S(=O)(=O)c1ccc(Cl)cc1,,128 µg/mL,BACTEC,H37Rv,inhibition,100%
Cc1ccc(NC(=S)c2cccc(Br)c2)cc1,,,,H37Rv,MIC,61.9 µM
CCCCCCCCCCCCCCCCNC(CCO)[C@H]1OC2OC(C)(C)OC2C2OC(C)(C)OC21,,,,H37Ra,MIC,25 µg/mL
S=C(Nc1ccc(C2CCCCC2)cc1)c1cccc(Br)c1,,,,H37Rv,MIC,15 µM
Nc1ccc2cc(-n3nncc3COc3nc(-c4ccncc4)sc3C(=O)O)c(=O)oc2c1,,,resazurin,H37Rv,MIC,13.51 µM
Cc1ccc2c(c1)N(CCC(C)C)C(=O)c1ccnnc1O2,,,BACTEC,H37Rv,EC50,>12.5 µg/mL
CCCCCCCCCCCCNC(CCO)C1OC2OC(C)(C)OC2[C@H]1OCc1ccccc1,,,,H37Ra,MIC,6.25 µg/mL
CO[C@@]12[C@H](COC(N)=O)C3=C(C(=O)C(C)=C(N)C3=O)N1C[C@H]1[C@@H]2N1C,,,,CS-R,MIC,0.4 µg/mL
CO[C@@H]1[C@H](O)[C@@H](C)O[C@@H](OC[C@H](C)[C@H]2OC(=O)[C@H](C)[C@@H](O[C@H]3C[C@@H](C)N(C)C[C@H](C)O3)[C@H](C)[C@@H](O[C@@H]3O[C@H](C)C/C(=C\C#N)[C@H]3O)[C@@H](C)C[C@](C)(OC(=O)N3C[C@@H](C)O[C@@H](C)C3)C(=O)[C@H](C)[C@H](OC(=O)CC(C)C)[C@H]2C)[C@@H]1OC,,,resazurin,H37Rv,MIC,0.424 µM
COc1ccc(NC(=S)c2ccc(OC)cc2)cc1,,,,H37Rv,MIC,61.9 µM
COC(=O)C1[C@@H](OC(=O)CC(CCCCCCCCCCC(C)C)OC(=O)CC(C)CC(=O)OC2OC(C)C(OC)C(OC)C2OC)CN(C)C([C@@H](OC2O[C@H](CN)[C@@H](O)[C@H]2O)C2OC(n3ccc(=O)[nH]c3=O)[C@H](O)[C@@H]2O)C(=O)N1C,,,,20 clinical strains,MIC,6.25–12.5 µg/mL
C(#Cc1ncc2ncn(Cc3ccccc3)c2n1)c1ccccc1,,,BACTEC,H37Rv,EC50,>12.5 µg/mL
Cc1ccc2c(c1)N(CCCC1CCCCC1)C(=O)c1cc(Cl)nnc1O2,,,BACTEC,H37Rv,EC50,>12.5 µg/mL
Cc1ccc(C(=O)NNC(N)=S)cc1,,,,H37Rv,MIC,>100 µg/mL
O=C(O)c1sc(-c2cccnc2)nc1OCc1cnnn1-c1cc2ccc(O)cc2oc1=O,,,resazurin,H37Rv,MIC,53.95 µM
S=C(Nc1ccc(Cl)c(Cl)c1)c1cccc(Br)c1,,,,H37Rv,MIC,31 µM
CCCCCCCCCCCCCNC(CCO)[C@H]1OC2OC(C)(C)OC2C2OC(C)(C)OC21,,,,H37Ra,MIC,12.5 µg/mL
Cc1ccc2c(c1)Oc1nnc(Cl)cc1C(=O)N2CC1CCCCC1,,,BACTEC,H37Rv,EC50,12.5 µg/mL
CCOc1ccc2cc(-n3nncc3COc3nc(-c4cccnc4)sc3C(=O)OC)c(=O)oc2c1,,,resazurin,H37Rv,MIC,12.36 µM
CCOC(=O)c1cc2c(-c3ccccc3)c(-c3ccccc3)c(-c3ccccc3)c(-c3ccccc3)n2n1,,,resazurin,H37Rv,MIC bound,>6.25 µg/mL
Cc1ccc(C(=S)Nc2ccc(C3CCCCC3)cc2)cc1,,,,H37Rv,MIC,31 µM
C=CCN1[C@@H](c2ccccc2)CC2(C[C@H]1c1ccccc1)N=c1c(c3c4c5c(C)c(O)c3c(O)c1=NC(=O)/C(C)=C\C=C\[C@H](C)[C@H](O)[C@@H](C)[C@H](O)[C@H](C)[C@H](OC(C)=O)[C@H](C)[C@@H](OC)/C=C/O[C@@](C)(O5)C4=O)N2,,,,H37Rv,MIC,0.02 µg/mL
CCn1cc(C(=O)O)c(=O)c2cc(F)c(N3CCN(C/C(=N/O)c4ccc(Br)cc4)CC3)cc21,,,,H37Rv,EC50,>6.25 µg/mL
CO[C@H]1/C=C/O[C@@]2(C)Oc3c(C)c(O)c4c(O)c(c5c(c4c3C2=O)NC2(CCNCC2)N=5)=NC(=O)/C(C)=C\C=C\[C@H](C)[C@H](O)[C@@H](C)[C@@H](O)[C@@H](C)[C@H](OC(C)=O)[C@@H]1C,,,,ATCC 35820 (streptomycin-resistant),MIC,0.02 µg/mL
CC(=O)/C=C/CCCCCCCCCCCCc1ccccc1,,,,,MIC,>128 µg/mL
c1ccc(Cn2cnc3cnc(-c4cccs4)nc32)cc1,,,BACTEC,H37Rv,EC50,>12.5 µg/mL
CS(=O)(=O)Nc1cc(C(O)C2CCCCN2)ccc1O,,6.25 µg/mL,resazurin,H37Rv,inhibition,2%
COc1cc(C(=O)N/N=C(\N)SC)cc(OC)c1OC,,,,H37Rv,MIC,>100 µg/mL
O=C1CC(=O)n2cnc3cccc(c32)N1,,,resazurin,H37Rv,MIC bound,>6.25 µg/mL
CCCCCCCCCCCCNC(CCO)C1OC2OC(C)(C)OC2[C@H]1OC,,,,H37Rv,MIC,12.5 µg/mL
O=C(/C=C/c1ccc(O)cc1)NCCc1ccc(O)cc1,,,,,MIC,32 µg/mL
C1CNCCN1.CCC1CN(C(=S)S)C(CC)CN1,,,BACTEC,H37Rv,MIC,≥12.5 µg/mL
O=C(O)c1cn(C2CC2)c2cc(N3CCN(C/C(=N/O)c4ccccc4)CC3)c(F)cc2c1=O,VERO,6.25 µg/mL,,H37Rv,inhibition,100%
Clc1ncnc2c1nc(C#Cc1ccccc1)n2Cc1ccccc1,,,BACTEC,H37Rv,EC50,>12.5 µg/mL
COC(=O)C1=CO[C@@H](C)[C@H]2C[n+]3ccc4c([nH]c5ccccc54)c3C[C@H]12,,128 µg/mL,BACTEC,H37Rv,inhibition,87%
NNC(=O)c1ccncc1,,,,1620-6,MIC,0.05 µg/mL
CC(=O)C1(C)Nc2cccc3cccc(c23)N1,,12.8 µg/mL,BACTEC,H37Rv,inhibition,3%
NC(=S)NNC(=O)c1ccc(Cl)cc1Cl,,,,H37Rv,MIC,>100 µg/mL
C/C(=N\NC(=S)N(C)C)c1ccccn1.[Cu][Br],,,,V2475,MIC90,6.25 µM
CO/N=C1\C[C@@H](C)O[C@@H](O[C@@H]2[C@@H](C)[C@H](O[C@H]3CC(C)N(C)C[C@H](C)O3)[C@@H](C)C(=O)O[C@H]([C@@H](C)CO[C@@H]3O[C@H](C)[C@@H](O)[C@@H](OC)[C@H]3OC)[C@H](C)[C@@H](OC(=O)CC(C)C)[C@@H](C)C(=O)[C@@](C)(OC(=O)N3CCOCC3)C[C@@H]2C)[C@@H]1O,,,resazurin,H37Rv,MIC,1.11 µM
NC(=S)NNC(=O)c1ccccc1,,,,H37Rv,MIC,>100 µg/mL
CCN(CC)CCNc1ccc(CO)c2oc3cc(Cl)ccc3c(=O)c12,,,BACTEC,H37Rv,MIC,12.5 µg/mL
CO[C@H]1/C=C/O[C@@]2(C)Oc3c(C)c(O)c4c(O)c(c5c(c4c3C2=O)NC2(CCN(CC(C)C)CC2)N=5)=NC(=O)/C(C)=C\C=C\[C@H](C)[C@H](O)[C@@H](C)[C@@H](O)[C@@H](C)[C@H](OC(C)=O)[C@@H]1C,,,,Strain 136 (H526P),MIC,16 µg/mL
Cc1ccc(C(=O)N/N=C(\N)SCc2cccc(Cl)c2)cc1,,,,H37Rv,MIC,>100 µg/mL
CSc1nc(N)c(N=Nc2ccc(S(=O)(=O)Nc3occ(C)c3C)cc2)c(=O)[nH]1,,,BACTEC,H37Rv,MIC bound,>12.5 µg/mL
CCCCCCN1C(=O)c2cc(Cl)nnc2Oc2ccccc21,,,BACTEC,H37Rv,EC50,>12.5 µg/mL
C=CCS/C(N)=N/NC(=O)c1ccc(OC)cc1,,,,H37Rv,MIC,>100 µg/mL
CCCCN(CCCC)C(=S)S[As](SC(=S)N(CCCC)CCCC)SC(=S)N(CCCC)CCCC,,128 µg/mL,BACTEC,H37Rv,inhibition,97%
C=CCS/C(N)=N/NC(=O)c1ccc(F)cc1,,,,H37Rv,MIC,>100 µg/mL
NNC1=N/C(=C/c2ccco2)C(Cl)=N1,,0.5 µM,BACTEC,,inhibition,0%
C[C@@H]1Cn2cc(C(=O)O)c(=O)c3cc(F)c(N4CCN(/C(N)=N/C(N)=NCCCCCCN=C(N)/N=C(\N)N5CCN(c6c(F)cc7c(=O)c(C(=O)O)cn8c7c6O[C@@H](C)C8)CC5)CC4)c(c32)O1,,,broth dilution,H27Rv,MBC,1.25 µg/mL
Clc1nc(/C=C/c2ccccc2)nc2c1ncn2Cc1ccccc1,,,BACTEC,H37Rv,EC50,<12.5 µg/mL
COC(=S)SSC(=S)NCC(C)NC(=S)SSC(=S)OC,,,BACTEC,H37Rv,MIC,6.25 µg/mL
Cc1ccc(/C(CN2CCN(c3cc4c(cc3F)c(=O)c(C(=O)O)cn4C3CC3)CC2)=N\O)cc1,,,,H37Rv,MIC,>6.25 µg/mL
COc1ccc2n[se]nc2c1,,12.5 µg/mL,BACTEC,H37Rv,inhibition,28%
O=Cc1sc(-c2ccncc2)nc1OCc1cnnn1-c1cc2ccc(O)cc2oc1=O,,,resazurin,H37Rv,MIC,112 µM
S=C(Nc1ccc(Cl)c(Cl)c1)c1ccc(Cl)cc1,,,,H37Rv,MIC,15 µM
CCCCCCCCCCCCC1OC2OC(C)(C)OC2[C@@H]1OCc1ccccc1,,,,H37Ra,MIC,12.5 µg/mL
CCOc1ccc2cc(-n3nncc3COc3nc(-c4ccccn4)sc3C(=O)O)c(=O)oc2c1,,,resazurin,H37Rv,MIC,12.72 µM
Cc1onc(-c2ccccc2Cl)c1C(=O)O,,6.25 µg/mL,resazurin,H37Rv,inhibition,-118%
Nc1ccc2cc(-n3nncc3COc3nc(-c4ccccn4)sc3C=O)c(=O)oc2c1,,,resazurin,H37Rv,MIC,7 µM
CCCCN1[C@@H](c2ccccc2)CC2(C[C@H]1c1ccccc1)N=c1c(c3c4c5c(C)c(O)c3c(O)c1=NC(=O)/C(C)=C\C=C\[C@H](C)[C@H](O)[C@@H](C)[C@H](O)[C@H](C)[C@H](OC(C)=O)[C@H](C)[C@@H](OC)/C=C/O[C@@](C)(O5)C4=O)N2,,,,ATCC 35822 (isoniazid-resistant),MIC,0.02 µg/mL
NC[C@H]1O[C@H](O[C@H]2[C@H](O)[C@@H](O[C@H]3O[C@H](CO)[C@@H](O)[C@H](N)[C@H]3O)[C@H](N)C[C@@H]2N)[C@H](N)[C@@H](O)[C@@H]1O,,,,H37Ra,MIC,2–5 µg/mL
Cc1ccc(-n2cc(-c3ccc(Cl)cc3)c3c(N/N=C4\SCC(=O)N4C)ncnc32)cc1,,,BACTEC,H37Rv,MIC bound,>12.5 µg/mL
C=CCc1ccc(OC)c(OC)c1,,,,,MIC,>128 µg/mL
COC(=O)C(=O)C(C(=O)C=C(C)C)c1nc2n(c1O)C(=N)N=N2,,6.25 µg/mL,resazurin,H37Rv,inhibition,-22%
S=C(Nc1ccc(C2CCCCC2)cc1)c1ccccc1,,,,H37Rv,MIC,31 µM
CCOC(=O)c1cc(Cl)cc2c(=O)c3c(O)c4[nH]c5c(C(=O)OCC)cc(Cl)cc5c(=O)c4c(O)c3[nH]c12,,12.5 µg/mL,BACTEC,H37Rv,inhibition,14%
c1ccc(Cn2cnc3c(-c4ccccc4)ncnc32)cc1,,,BACTEC,H37Rv,EC50,<12.5 µg/mL
CC1N(C)CCC1(C)CN1c2ccccc2Sc2ccccc21.Cl,,,,H37Rv,MIC,12.5 µg/mL
Ic1ncc2ncn(Cc3ccccc3)c2n1,,,BACTEC,H37Rv,EC50,>12.5 µg/mL
COc1ccc(C(=S)Nc2ccc(C)cc2)cc1,,,,H37Rv,MIC,250 µM
CC(=O)CCCCCCCCCCCCCCc1ccc2c(c1)OCO2,,,,,MIC,6.25 µg/mL
CO[C@H]1/C=C/O[C@@]2(C)Oc3c(C)c(O)c4c(O)c(c5c(c4c3C2=O)NC2(CCN(CC(C)C)CC2)N=5)=NC(=O)/C(C)=C\C=C\[C@H](C)[C@H](O)[C@@H](C)[C@@H](O)[C@@H](C)[C@H](OC(C)=O)[C@@H]1C,,,,16 strains (rifampicin-susceptible),MIC90,0.05 µg/mL
CC1=C(c2c(C)cc(O)c3c2C(=O)C(c2c(O)c4c(C)cccc4oc2=O)=C(c2c(O)c4c(C)cccc4oc2=O)C3=O)C(=O)c2c(O)cccc2C1=O,,,,MTCS2,MIC,1.22 µg/mL
O=C(O)c1cn(C2CC2)c2cc(N3CCN(C/C(=N/O)c4ccc(Br)cc4)CC3)c(F)cc2c1=O,,6.25 µg/mL,,H37Rv,inhibition,87%

A second listing of 9 rows from above:

{"compound": "CC(=O)/C=C/CCCCCCCCCCCCc1ccccc1", "read-out": "MIC", "result": ">128 µg/mL"}
{"compound": "S=C(Nc1ccc(Cl)c(Cl)c1)c1cccc(Br)c1", "strain": "H37Rv", "read-out": "MIC", "result": "31 µM"}
{"compound": "S=C(Nc1ccc(Br)cc1)c1ccc(Cl)cc1", "strain": "H37Rv", "read-out": "MIC", "result": "250 µM"}
{"compound": "O=C(/C=C/c1ccc(O)cc1)NCCc1ccc(O)cc1", "read-out": "MIC", "result": "32 µg/mL"}
{"compound": "Cc1ccc(-n2cc(-c3ccc(Cl)cc3)c3c(N/N=C4\\SCC(=O)N4C)ncnc32)cc1", "read by": "BACTEC", "strain": "H37Rv", "read-out": "MIC bound", "result": ">12.5 µg/mL"}
{"compound": "c1ccc(Cn2cnc3cnc(-c4cccs4)nc32)cc1", "read by": "BACTEC", "strain": "H37Rv", "read-out": "EC50", "result": ">12.5 µg/mL"}
{"compound": "C1CNCCN1.CCC1CN(C(=S)S)C(CC)CN1", "read by": "BACTEC", "strain": "H37Rv", "read-out": "MIC", "result": "≥12.5 µg/mL"}
{"compound": "CCn1cc(C(=O)O)c(=O)c2cc(F)c(N3CCN(C/C(=N/O)c4ccc(Br)cc4)CC3)cc21", "strain": "H37Rv", "read-out": "EC50", "result": ">6.25 µg/mL"}
{"compound": "COC(=O)C(=O)C(C(=O)C=C(C)C)c1nc2n(c1O)C(=N)N=N2", "dose": "6.25 µg/mL", "read by": "resazurin", "strain": "H37Rv", "read-out": "inhibition", "result": "-22%"}